Compound potency records, mixed from different reports. Data source: NIAID ChemDB in PubChem.

All rows: growth or infection tests; organism: HIV-1; cells: MT-4; read-out: EC50

Conditions beyond the fields shown may differ between rows.

structure | strain | changes | read by | result
CCOCn1c(SCC(N)=O)nc(C(C)C)c1CC1CCCCC1 | IIIB |  | cytopathic effect / MTT | 2.11 µM
C1CNCCNCCCN(CCCN2CCCNCCNCCCNCC2)CCNC1 | clinical isolate A012C AZT-resistant |  | p24 / ELISA | 0.37 µM
N#Cc1cc(Cl)cc(Oc2c(Br)ccc(Cn3c(=O)[nH]c4nnccc43)c2F)c1 |  | Wild type | MTT | 0.004 µM
Nc1nc(=O)n([C@H]2CS[C@@H](CO)O2)cc1F | RF | RT-M184I | cytopathic effect / MTT | 7.07 µM
NC(=NCCCCNc1ccc2[nH]ccc2c1)N[N+](=O)[O-] | IIIB |  | MTT | >431 µM
Cc1cc(C)cc(Cc2c(C(C)C)nc(SCC(N)=O)n2COCc2ccccc2)c1 | IIIB |  | cytopathic effect / MTT | 0.15 µM
CN(C)C(=O)Oc1nsnc1-c1ccccc1Cl | IIIB-R (RT-Y181C) | RT-Y181C | cytopathic effect / MTT | >162 µM
Nc1nc(=O)n([C@@H]2CO[C@H](CO)S2)cc1F | HXB2D |  | RT activity | 2.2 µM
CN(C)C(=O)Oc1nsnc1-c1cc(Cl)ccc1Cl | IIIB-R (RT-Y181C) | RT-Y181C | cytopathic effect / MTT | >111 µM
CC(C)CNC(=O)[C@@H]1CN(C(C)(C)c2cc3cnccc3o2)CCN1C[C@@H](O)C[C@@H](Cc1ccccc1)C(=O)N[C@H]1c2ccccc2OC[C@H]1O | NL4-3 |  | p24 | <0.015 µM
O=C1c2cccn2-c2ccc(Cl)cc2S(=O)(=O)N1C1CCCCC1 | IIIB |  | cytopathic effect / MTT | 4 µM
Cc1ccnc2c1NC(=O)c1cccnc1N2C1CC1 | IIIB | K103N + Y181C | MTT | >15 µM
C[C@H]1C(=O)Nc2ccc(Cl)cc2CN1Cc1ccco1 |  |  | cytopathic effect / MTT | 19.7 µM
CCOC(=O)C1CN(Cc2ccc(S(N)(=O)=O)cc2)CCC1Nc1nc(Oc2c(C)cc(C#N)cc2C)c2sccc2n1 | IIIB | NNRTI-resistant (RT L100I) | MTT | 0.389 µM
CCOCn1c(Cc2ccccc2)c(C(C)C)c(=O)[nH]c1=O | IIIB |  | cytopathic effect / MTT | 0.03 µM
N#Cc1ccc(Nc2nccc(Oc3ccc(C(=O)CC(=O)C(=O)O)cc3)n2)cc1 | IIIB | Y188L | MTT | >48 µM
CCN1C(=O)c2cccn2-c2ccc(Cl)cc2S1(=O)=O | IIIB |  | cytopathic effect / MTT | 35 µM
N#Cc1cc(Cl)cc(Oc2c(Br)ccc(Cn3cn[nH]c3=O)c2F)c1 | K103N/Y181C | NNRTI-resistant (RT K103N/Y181C) | MTT | 0.055 µM
CC(C)C1C(=O)Nc2ccc(Cl)cc2CN1Cc1ccco1 |  |  | cytopathic effect / MTT | 7.7 µM
O=S1(=O)NC(c2c(Cl)cccc2Cl)c2cccn2-c2ccc(Cl)cc21 | IIIB |  | cytopathic effect / MTT | >200 µM
Cc1cn([C@H]2C[C@H](N=[N+]=[N-])[C@@H](CO)O2)c(=O)[nH]c1=O | NL4-3 |  | cytopathic effect / MTT | 0.0002 µg/mL
CCC(=CCN1Cc2c(Cl)cccc2NC(=O)C1C)CC |  |  | cytopathic effect / MTT | 5.6 µM
CO[P@](=O)(c1cc(C)cc(/C=C/C#N)c1)c1c(C(N)=O)[nH]c2ccc(Cl)c(F)c12 | IIIB | K103N/Y181C |  | 0.0047 µM
CCN(CC)c1nc(N)nc2c1ncn2[C@H]1C[C@H](N=[N+]=[N-])[C@@H](CO)O1 | IIIB |  | cytopathic effect | >200 µM
Cn1cc(Cc2ccc(Br)c(Oc3cc(Cl)cc(C#N)c3)c2F)c(=O)[nH]c1=O |  | Wild type | MTT | 0.005 µM
Cc1cc(C#N)cc(C)c1Oc1nc(NC2CCC(NCc3ccc(Br)cc3)CC2)nc2ccsc12 | IIIB | NNRTI-resistant (RT E138K) | MTT | 0.946 µM
CCCCCCN(C)C(=O)Oc1nsnc1-c1c(Cl)cccc1Cl | IIIB |  | cytopathic effect / MTT | 0.12 µM
[N-]=[N+]=N[C@H]1C[C@H](n2cnc3c(OC4CCC4)nc(N)nc32)O[C@@H]1CO | IIIB |  | cytopathic effect | 5 µM
CCCCN(C)C(=O)Oc1nsnc1-c1c(Cl)cccc1Cl | IIIB |  | cytopathic effect / MTT | 0.02 µM
NCCCCNc1ccc2[nH]ccc2c1 | IIIB |  | MTT | >19.23 µM
Cc1c(Sc2ccccc2)n(COCCO)c(=O)[nH]c1=O | RF |  | cytopathic effect / MTT | 12 µM
CCCN(C)C(=O)Oc1nsnc1-c1c(Cl)cccc1Cl | IIIB-R (RT-Y181C) | RT-Y181C | cytopathic effect / MTT | 2.6 µM
N#Cc1cc(Cl)cc(Oc2c(Br)ccc(Cn3c(=O)[nH]c4ccccc43)c2F)c1 | K103N/Y181C | NNRTI-resistant (RT K103N/Y181C) | MTT | 0.046 µM
CN(C)C(=O)Oc1nsnc1-c1c(Cl)cccc1Cl | IIIB |  | cytopathic effect / MTT | 0.2 µM
CC[C@H](C)[C@H](NC(=O)c1ccccc1SSc1ccccc1C(=O)N[C@H](C(=O)O)[C@@H](C)CC)C(=O)O | LAV-Bru |  | p24 / RT activity | 2.5 µM
CCNC(N)=NCCCNc1ccc2[nH]ccc2c1 | IIIB |  | MTT | >52.67 µM
O=S(=O)(O)OCC1OC2OC3C(COS(=O)(=O)O)OC(OC4C(COS(=O)(=O)O)OC(OC5C(COS(=O)(=O)O)OC(OC6C(COS(=O)(=O)O)OC(OC7C(COS(=O)(=O)O)OC(OC8C(COS(=O)(=O)O)OC(OC1C(OS(=O)(=O)O)C2OS(=O)(=O)O)C(OS(=O)(=O)O)C8OS(=O)(=O)O)C(OS(=O)(=O)O)C7OS(=O)(=O)O)C(OS(=O)(=O)O)C6OS(=O)(=O)O)C(OS(=O)(=O)O)C5OS(=O)(=O)O)C(OS(=O)(=O)O)C4OS(=O)(=O)O)C(OS(=O)(=O)O)C3OS(=O)(=O)O | NL4-3 |  | cytopathic effect / MTT | 0.13 µg/mL
CC(C)(C)NC(=O)[C@@H]1CN(Cc2cccnc2)CCN1C[C@H](C[C@@H](Cc1ccccc1)C(=O)N[C@H]1c2ccccc2C[C@H]1O)OC(=O)CCC(=O)O[C@H]1[C@@H](C2COC(C)(C)O2)OC2OC(C)(C)O[C@H]21 | IIIB |  | cytopathic effect / MTT | 0.56 µM
CCOCn1c(SCC(N)=O)nc(CC)c1Cc1cc(C)cc(C)c1 | IIIB |  | cytopathic effect / MTT | 1.33 µM
CC(C)=CCN1Cc2cc(Cl)cc3[nH]c(=S)n(c23)C[C@@H]1C |  |  | cytopathic effect / MTT | 0.034 µM
[N-]=[N+]=N[C@H]1C[C@H](n2cnc3c(Nc4ccccc4)nc(N)nc32)O[C@@H]1CO | IIIB |  | cytopathic effect | >200 µM
Nc1ccn([C@@H]2CO[C@H](CO)S2)c(=O)n1 | MN |  | cytopathic effect / MTT | 22 µM
O=C1NS(=O)(=O)c2cc(Cl)ccc2-n2cccc21 | IIIB |  | cytopathic effect / MTT | ≥200 µM
CC(C)(C)NC(=O)[C@@H]1CN(Cc2cccnc2)CCN1C[C@@H](O)C[C@@H](Cc1ccccc1)C(=O)N[C@H]1c2ccccc2C[C@H]1O | IIIB |  | cytopathic effect / MTT | 0.022 µM
[N-]=[N+]=N[C@H]1C[C@H](n2cnc3c(Oc4ccccc4)nc(N)nc32)O[C@@H]1CO | IIIB |  | cytopathic effect | 28 µM
CC(C)(c1cc2cnccc2o1)N1CCN(C[C@@H](O)C[C@@H](Cc2ccccc2)C(=O)N[C@H]2c3ccccc3OC[C@H]2O)[C@H](C(=O)NC2CCCC2)C1 | NL4-3 |  | p24 | <0.008 µM
O=c1[nH]cnc2c1ncn2[C@H]1CC[C@@H](CO)O1 | HxB2D(RT-D67G) | RT-D67G | RT activity | 1.5 µM
Cc1cn([C@H]2C[C@H](N=[N+]=[N-])[C@@H](CO)O2)c(=O)[nH]c1=O | IIIB/LAI |  | antigen | 0.017 µM
NC(N)=NCCCCNc1ccc2[nH]ccc2c1.O=S(O)O | IIIB |  | MTT | >213 µM
N#Cc1cc(Cl)cc(Oc2c(Br)ccc(CN3CC(=O)NC3=O)c2F)c1 |  | Wild type | MTT | 0.004 µM
CCCOc1nc(N)nc2c1ncn2[C@H]1C[C@H](N=[N+]=[N-])[C@@H](CO)O1 | IIIB |  | cytopathic effect | 9 µM
CCOC(=O)C(=O)CC(=O)c1cccc(Oc2ccnc(Nc3ccc(C#N)cc3)n2)c1 | IIIB | Y181C | MTT | >13 µM
CN(C)C(=O)Oc1nsnc1-c1ccc(Cl)cc1Cl | IIIB-R (RT-Y181C) | RT-Y181C | cytopathic effect / MTT | >77 µM
CC(C)(C)CNC(=O)[C@@H]1CN(C(C)(C)c2cc3cnccc3o2)CCN1C[C@@H](O)C[C@@H](Cc1ccccc1)C(=O)N[C@H]1c2ccccc2OC[C@H]1O | NL4-3 |  | p24 | <0.031 µM
[N-]=[N+]=N[C@H]1C[C@H](n2cnc3c(N4CCCC4)nc(N)nc32)O[C@@H]1CO | IIIB |  | cytopathic effect | 8 µM
CC1NCc2cc(Cl)ccc2NC1=O |  |  | cytopathic effect / MTT | >1187 µM
Nc1ncnc2c1ncn2[C@H]1C=C[C@@H](CO)O1 | IIIB |  | syncytia | 21 µM
C[C@H]1C(=O)Nc2ccc(Cl)cc2CN1CC(N)=O |  |  | cytopathic effect / MTT | >934 µM
CN(C)C(=O)Oc1nsnc1-c1ccc(Cl)cc1 | IIIB-R (RT-Y181C) | RT-Y181C | cytopathic effect / MTT | >353 µM
c1cc2cc(NCCCNC3=NCCCN3)ccc2[nH]1 | IIIB |  | MTT | 19.69 µM
[N-]=[N+]=N[C@H]1C[C@H](n2cnc3c(NC4CC4)nc(N)nc32)O[C@@H]1CO | IIIB |  | cytopathic effect | 18 µM
COC(=O)[C@H](C)NP(=O)(OC[C@@H]1CC[C@H](n2cnc3c(N)ncnc32)O1)Oc1ccccc1 | IIIB |  | syncytia | 0.01 µM
Cc1cn(Cc2ccc(Br)c(Oc3cc(Cl)cc(C#N)c3)c2F)c(=O)[nH]c1=O |  | Wild type | MTT | 0.001 µM
CCOCn1c(SCC(N)=O)nc(CC)c1CC1CCCCC1 | IIIB |  | cytopathic effect / MTT | 22.85 µM
N#Cc1cc(Cl)cc(Oc2c(Br)ccc(Cn3ccc(=O)[nH]c3=O)c2F)c1 | K103N/Y181C | NNRTI-resistant (RT K103N/Y181C) | MTT | 0.019 µM
Cc1cn([C@H]2C[C@H](N=[N+]=[N-])[C@@H](CO)O2)c(=O)[nH]c1=O | LAI |  | cytopathic effect / MTT | 0.014 µM
CC(C)=CCN1Cc2cc(Cl)ccc2N(C)C(=O)C1C(C)C |  |  | cytopathic effect / MTT | >100 µM
CCCCNC(=O)Oc1nsnc1-c1c(Cl)cccc1Cl | IIIB-R (RT-Y181C) | RT-Y181C | cytopathic effect / MTT | >139 µM
O=S1(=O)NC(c2ccccc2)c2cccn2-c2ccc(Cl)cc21 | IIIB |  | cytopathic effect / MTT | ≥200 µM
CC(C)(C)NC(=O)[C@@H]1CN(Cc2cccnc2)CCN1C[C@@H](O)C[C@@H](Cc1ccccc1)C(=O)N[C@H]1c2ccccc2C[C@H]1OC(=O)CCCCO[C@@H]1[C@@H](O)[C@@H](O)O[C@H](CO)[C@H]1O | IIIB |  | cytopathic effect / MTT | 0.19 µM
Cc1cc(C#N)cc(C)c1Oc1nc(NC2CCN(Cc3cccc(C(N)=O)c3)CC2)nc2sccc12 | IIIB | NNRTI-resistant (RT Y188L) | MTT | 0.017 µM
Nc1nc(=O)n([C@H]2CO[C@@H](CO)S2)cc1F | HXB2D(RT-M184I) | RT-M184I | RT activity | 18 µM
O=c1[nH]cnc2c1ncn2[C@H]1CC[C@@H](CO)O1 | IIIB |  | cytopathic effect / MTT | 19 µM
CCCCNc1nc(N)nc2c1ncn2[C@H]1C[C@H](N=[N+]=[N-])[C@@H](CO)O1 | IIIB |  | cytopathic effect | 29 µM
c1cc2cc(NCCCNC3=NCCN3)ccc2[nH]1 | IIIB |  | MTT | 52.82 µM
CC(C)C1C(=O)N(C)c2ccc(Cl)cc2CN1C(=O)OC(C)(C)C |  |  | cytopathic effect / MTT | >100 µM

Repeating the final 8 entries:

O=S1(=O)NC(c2ccccc2)c2cccn2-c2ccc(Cl)cc21 ; strain: IIIB ; read by: cytopathic effect / MTT ; result: ≥200 µM
CC(C)(C)NC(=O)[C@@H]1CN(Cc2cccnc2)CCN1C[C@@H](O)C[C@@H](Cc1ccccc1)C(=O)N[C@H]1c2ccccc2C[C@H]1OC(=O)CCCCO[C@@H]1[C@@H](O)[C@@H](O)O[C@H](CO)[C@H]1O ; strain: IIIB ; read by: cytopathic effect / MTT ; result: 0.19 µM
Cc1cc(C#N)cc(C)c1Oc1nc(NC2CCN(Cc3cccc(C(N)=O)c3)CC2)nc2sccc12 ; strain: IIIB ; changes: NNRTI-resistant (RT Y188L) ; read by: MTT ; result: 0.017 µM
Nc1nc(=O)n([C@H]2CO[C@@H](CO)S2)cc1F ; strain: HXB2D(RT-M184I) ; changes: RT-M184I ; read by: RT activity ; result: 18 µM
O=c1[nH]cnc2c1ncn2[C@H]1CC[C@@H](CO)O1 ; strain: IIIB ; read by: cytopathic effect / MTT ; result: 19 µM
CCCCNc1nc(N)nc2c1ncn2[C@H]1C[C@H](N=[N+]=[N-])[C@@H](CO)O1 ; strain: IIIB ; read by: cytopathic effect ; result: 29 µM
c1cc2cc(NCCCNC3=NCCN3)ccc2[nH]1 ; strain: IIIB ; read by: MTT ; result: 52.82 µM
CC(C)C1C(=O)N(C)c2ccc(Cl)cc2CN1C(=O)OC(C)(C)C ; read by: cytopathic effect / MTT ; result: >100 µM

An empty or dashed field is not shown. ECn is the concentration giving n% inhibition of infection, replication or growth.